Structures are written as SMILES. Only a part is listed here, and it is no random draw. Calls of active or inactive are those of the source. Rule as the data show it: active = activation above about 50%; inconclusive = mostly about 30% to 49%; inactive = weaker than that.

The chains behind the UniProt entries cited, without tags or fusion partners.
UniProt Q9GZU1, whole entry: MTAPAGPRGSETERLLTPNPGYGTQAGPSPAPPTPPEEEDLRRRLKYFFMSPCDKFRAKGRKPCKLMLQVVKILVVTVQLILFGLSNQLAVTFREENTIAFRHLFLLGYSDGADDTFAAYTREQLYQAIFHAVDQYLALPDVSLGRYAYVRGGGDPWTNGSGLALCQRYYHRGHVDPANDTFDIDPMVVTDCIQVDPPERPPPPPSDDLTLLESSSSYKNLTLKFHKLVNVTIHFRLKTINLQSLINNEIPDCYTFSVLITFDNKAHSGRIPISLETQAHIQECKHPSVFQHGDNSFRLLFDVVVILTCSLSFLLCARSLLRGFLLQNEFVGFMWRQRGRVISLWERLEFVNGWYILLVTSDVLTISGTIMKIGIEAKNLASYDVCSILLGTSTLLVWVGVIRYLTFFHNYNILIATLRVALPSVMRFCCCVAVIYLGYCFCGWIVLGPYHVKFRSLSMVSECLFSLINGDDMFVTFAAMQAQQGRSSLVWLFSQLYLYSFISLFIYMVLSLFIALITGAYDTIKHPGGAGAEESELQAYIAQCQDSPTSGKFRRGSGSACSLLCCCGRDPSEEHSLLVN

This assay deals with Mucolipin-1 (Homo sapiens) (UniProt Q9GZU1). Description: qHTS for Agonists of the Human Mucolipin Transient Receptor Potential 1 (TRPML1). Also: 0% is about no effect. The conditions noted are these: TRPML1-expressing cells, Ca2+ dye fluorescence, FDSS; stronger effect = higher value. A digest of the protocol:
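Kinetic FDSS Ca2+ read in Tet-induced TRPML1-DL cells (ABD Ca8 dye plus quencher, 45-90 min RT loading): baseline, then compound, then 110 s agonist window; EC80 agonist 54-4 at 4uM final added afterwards for a 110 s antagonist window.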
Take `O=[N+]([O-])c1cccc(NC2=NCC(CBr)S2)c1` (centres undefined): the activation was inactive: -0.227%.

With `O=[N+]([O-])c1ncn(CCn2ncnc2[N+](=O)[O-])n1`, the activation was inactive: 0.264%.

As to `CC(C)(C)C(=O)NC(Sc1ccncn1)C(Cl)(Cl)Cl` (centres undefined), the activation was inactive: -0.525%.

Regarding `CP(=O)(Oc1ccccc1)N1CCOC1=O` (centres undefined), the activation is inactive: -0.69%.

Regarding `Cc1ccc(NP(=O)(Oc2ccccc2)Oc2ccccc2)nc1`, the activation is inactive: -0.674%.

For the molecule `CCc1ccc(OP(C)(=O)Nc2cccnc2)cc1` (centres undefined), the activation is inactive: -1.1%.

For the molecule `CCc1nc2c(n1)c1c(non1O)c1c2no[n+]1[O-]`, the activation is inactive: -0.436%.

Regarding `O=[N+]([O-])c1cc([N+](=O)[O-])c(CCNc2ccccc2)c([N+](=O)[O-])c1`, the activation was inactive: 1.08%.

As to `O=[N+]([O-])c1cccc2n[nH]nc12`, the activation is inactive: -0.605%.

With `CC(=O)N1C2C3N(C(C)=O)C1C1N(C(C)=O)C(C(N1C(C)=O)N3C(C)=O)N2C(C)=O`, the activation was inactive: -0.894%.

For `COc1ccccc1OP(C)(=O)Nc1c(C)n(C)n(-c2ccccc2)c1=O` (centres undefined), the activation was inactive: -0.633%.

Consider `O=C(OCCCN1CCCC1)C(O)(c1ccccc1)C1CCCCC1` (centres undefined), for which the activation is inactive: 0.78%.

As for `CCN(CC)CC(O)COC(=O)C(O)(c1ccccc1)C1CCCCC1` (centres undefined), the activation is inactive: 0.865%.

In the case of `COc1ccc(OP(C)(=O)Nc2ccc(Br)cc2)cc1` (centres undefined), the activation is inactive: -0.14%.

For `COc1ccc(C2=NCC(CBr)S2)cc1` (centres undefined), the activation was inactive: 0.0471%.

Take `CC1CCN(C(=O)Oc2c(Cl)cc(Cl)c3cccnc23)CC1`: the activation was inactive: -0.654%.

In the case of `c1cc(-c2nn[nH]n2)ccc1-c1nn[nH]n1`, the activation is inactive: 0.14%.

Turning to `COc1cc([N+](=O)[O-])c([N+](=O)[O-])cc1OC`, the activation was inactive: -0.531%.

Turning to `CC(C)c1nc(Nc2ccccc2)n(P(=O)(N(C)C)N(C)C)n1`, the activation is inactive: -0.455%.

Consider `CN(C)C(=O)c1c([N+](=O)[O-])cc([N+](=O)[O-])cc1[N+](=O)[O-]`, for which the activation was inactive: -0.415%.

For the molecule `CC(C)=N/N=C(\N)N[N+](=O)[O-]`, the activation was inactive: -1.13%.

For `CN(C)C(=O)OCCc1n(C)cc[n+]1C`, the activation is inactive: 0.0456%.

For `CCN(/C(=N/P(=O)(N1CCOCC1)N1CCOCC1)N1CCOCC1)c1ccc(OC)cc1`, the activation is inactive: 0.715%.

For `CP(=O)(Nc1ccc(Cl)cc1)Oc1ccc(F)cc1` (centres undefined), the activation was inactive: 0.147%.

As for `COc1ccccc1OP(C)(=O)Nc1ccccc1Br` (centres undefined), the activation is inactive: -0.0882%.

For `CC(C)(C)c1ccc(OP(C)(=O)O)cc1`, the activation is inactive: 0.25%.

On to `Nc1ccc([As](=O)(O)c2ccc(N)cc2)cc1`, for which the activation was inactive: 0%.

As for `C[N+]1=C2C=CC=CC=C2SC12C([N+](=O)[O-])=CC([N+](=O)[O-])=C[C-]2[N+](=O)[O-]` (centres undefined), the activation is inactive: 1.44%.

As for `CN1CCCC(OC(=O)C(c2ccccc2)c2ccccc2)C1` (centres undefined), the activation was inactive: -1.01%.

For the molecule `Clc1ccc(Cl)c(NC2=NCC(CBr)S2)c1` (centres undefined), the activation is inactive: -1.19%.

As to `CN(C)CCOC(=O)C(O)(c1ccccc1)C1CCCC1` (centres undefined), the activation is inactive: -0.308%.

For `COc1ccccc1OP(=O)(Nc1ccc(C)cn1)Oc1ccccc1OC`, the activation is inactive: 1.46%.

`COc1ccc(OP(C)(=O)Nc2ccccn2)cc1` (centres undefined): the activation was inactive: -0.033%.

`Cc1ccc(OP(=O)(Nc2nccs2)Oc2ccc(C)cc2)cc1`: the activation is inactive: -0.727%.

For `CN(C(=O)Cc1ccc(Cl)c(Cl)c1)[C@H]1CCCC[C@H]1N1CCCC1`, the activation was inactive: 1.58%.

Regarding `COc1ccccc1OP(C)(=O)Nc1ccc(Br)cc1` (centres undefined), the activation is inactive: 1.23%.

For the molecule `Cc1ccc(N/C(=N/P(=O)(N2CCOCC2)N2CCOCC2)N2CCOCC2)cc1`, the activation was inactive: -0.0832%.

For `NC(=O)c1cc([N+](=O)[O-])cc([N+](=O)[O-])c1N`, the activation is inactive: -0.264%.

With `O=[N+]([O-])c1cc2c(cc1[N+](=O)[O-])OCO2`, the activation was inactive: -0.285%.

For `CCc1ccc(OP(C)(=O)O)cc1`, the activation was inactive: -0.524%.

As for `O=[N+]([O-])C1C(O)C(O)C([N+](=O)[O-])C(O)C1O` (centres undefined), the activation is inactive: -0.483%.

For the molecule `CP(=O)(Nc1ccccn1)Oc1ccccc1` (centres undefined), the activation is inactive: 0.605%.

In the case of `COc1ccccc1OP(C)(=O)Nc1ccc(C)cc1C` (centres undefined), the activation is inactive: 0.972%.

For the molecule `Oc1ccccc1CNc1ccccn1`, the activation is inactive: 0%.

Consider `O=C(NC(Sc1ccncn1)C(Cl)(Cl)Cl)c1ccccc1` (centres undefined), for which the activation is inactive: 0.57%.

Regarding `Cc1c(NP(C)(=O)Oc2ccc(C(C)C)cc2)c(=O)n(-c2ccccc2)n1C` (centres undefined), the activation was inactive: -0.545%.

For the molecule `Nc1cc(N)c2nonc2c1[N+](=O)[O-]`, the activation was inactive: -0.428%.

Turning to `CC(C)CC(=O)NC(Sc1ccc(Cl)cc1)C(Cl)(Cl)Cl` (centres undefined), the activation was inactive: 1.68%.

For the molecule `O=[N+]([O-])c1cc([N+](=O)[O-])c(Nc2ccccn2)c([N+](=O)[O-])c1`, the activation is inactive: 0.0379%.

Turning to `COc1ccc(OP(C)(=O)Nc2ccccc2Br)cc1` (centres undefined), the activation is inactive: 0.0351%.

As to `Cc1cc(SC(NC(=O)c2ccc(F)cc2)C(Cl)(Cl)Cl)ncn1` (centres undefined), the activation is inactive: -0.326%.

Consider `CCOP(=O)(Nc1ccccc1)OCC`, for which the activation is inactive: 0.67%.

For the molecule `COc1ccccc1OP(C)(=O)Nc1ccc(C)c(C)c1` (centres undefined), the activation is inactive: -0.275%.

With `Cc1ccc(NP(=O)(Oc2ccccc2F)Oc2ccccc2F)nc1`, the activation is inactive: 0.337%.

Turning to `CN(C(=O)Cc1ccc(Cl)c(Cl)c1)[C@H]1CCCC[C@@H]1N1CCCC1`, the activation was inactive: -1.04%.

`O=P(Nc1nc2ccc(Cl)cc2s1)(c1ccccc1)c1ccccc1`: the activation is inactive: 0.778%.

`Cc1cc(C)cc(OP(C)(=O)Nc2cccc(C(F)(F)F)c2)c1` (centres undefined): the activation is inactive: 3.67%.

On to `CN(C)P(=O)(N(C)C)n1c(Nc2ccccc2)nnc1-c1ccccc1`, for which the activation was inactive: -0.595%.

Take `CC(=O)Nc1ccc([As](=O)(O)O)cc1`: the activation is inactive: -0.539%.

Turning to `O=C(O)c1ccccc1[As](=O)(O)O`, the activation is inactive: -1.02%.

Regarding `CCCC1OP(N)(=O)OCC1CC` (centres undefined), the activation is inactive: 0.506%.

Turning to `Nc1cccc2ccc([As](=O)(O)O)cc12`, the activation is inactive: -0.674%.

`CCCCCCCCCCCCCCCC1C[N+](C)(C)CCOP(C)(=O)O1` (centres undefined): the activation was inactive: 15.8%.

`CP(=O)(Nc1ccc(Cl)cc1Cl)Oc1ccccc1` (centres undefined): the activation is inactive: -0.331%.

Consider `CP(=O)(OCCOc1ccccc1)OCCOc1ccccc1`, for which the activation is inactive: 0.988%.

Regarding `CCN(N=Nc1nonc1N)c1nonc1N`, the activation was inactive: -0.0684%.

For the molecule `Nc1c(O)cc([N+](=O)[O-])cc1[N+](=O)[O-]`, the activation was inactive: -1.12%.

For `COc1ccc(OP(C)(=O)Nc2ccc(SC(F)(F)F)cc2)cc1` (centres undefined), the activation was inactive: 0.0975%.

Regarding `O=P1(N(CCCl)CCCl)OCCC2CCCCN21` (centres undefined), the activation was inactive: -0.428%.

For the molecule `CCOC(=O)c1ccc(NP(C)(=O)Oc2ccc(F)cc2)cc1` (centres undefined), the activation was inactive: -0.38%.

As for `c1ccc(-c2nn[nH]n2)c(-c2nn[nH]n2)c1`, the activation was inactive: 0.774%.

`Cc1ccc(NP(=O)(Oc2cccc(C)c2)Oc2cccc(C)c2)nc1`: the activation was inactive: 1.13%.

In the case of `O=[N+]([O-])c1cc([N+](=O)[O-])c2nc[nH]c2c1`, the activation was inactive: -0.236%.

For the molecule `CCNC(=S)/N=C(\N)N[N+](=O)[O-]`, the activation is inactive: 1.2%.

Regarding `O=C(NC1CCS(=O)(=O)C1)NP(=S)(Oc1ccccc1)Oc1ccccc1` (centres undefined), the activation was inactive: -0.693%.

With `CC(NC(=O)COC(=O)C(O)(c1ccccc1)c1ccccc1)c1ccccc1` (centres undefined), the activation was inactive: 1.05%.

Consider `Cc1ccccc1OP(=O)(Nc1ccccn1)Oc1ccccc1C`, for which the activation is inactive: 2.46%.

On to `O=c1c2cc([N+](=O)[O-])ccc2[nH]c2c([N+](=O)[O-])cc([N+](=O)[O-])cc12`, for which the activation was inactive: 1.85%.

Regarding `CCCCCOc1ccc(NP(C)(=O)Oc2ccc(Cl)cc2Cl)cc1` (centres undefined), the activation is inactive: 2.23%.

Consider `CN(C)C(=O)Oc1noc2ccccc12`, for which the activation was inactive: 0.607%.

Take `CP(=O)(Nc1ccccc1)Oc1ccc(F)cc1` (centres undefined): the activation is inactive: -0.295%.

For `O=C(OC1CN2CCC1CC2)c1ccccc1` (centres undefined), the activation was inactive: -0.368%.

In the case of `CCN(CC)CCCOC(=O)C(O)(c1ccccc1)C1CCCCC1` (centres undefined), the activation is inactive: -0.419%.

For `CCC(=O)N1C2C3N(C(=O)CC)C1C1N(C(=O)CC)C(C(N1C(=O)CC)N3C(=O)CC)N2C(=O)CC`, the activation is inactive: 1.23%.

Take `Cc1c([N+](=O)[O-])cc([N+](=O)[O-])c(Br)c1[N+](=O)[O-]`: the activation is inactive: -0.709%.

Turning to `COC(=O)c1cc2c(s1)N=C(c1ccccc1)N(C)P2(=O)N1CCOCC1` (centres undefined), the activation was inactive: -0.123%.

For the molecule `CC(=O)NC(SC(=S)N(CC(C)C)CC(C)C)C(Cl)(Cl)Cl` (centres undefined), the activation is inactive: 0.54%.

Regarding `Cc1ccc(OP(=O)(Nc2ccccn2)Oc2ccc(C)cc2)cc1`, the activation is inactive: -0.255%.

On to `CC(C)(C)C(=O)NC(Sc1ccccc1)C(Cl)(Cl)Cl` (centres undefined), for which the activation is inactive: 1.33%.

Consider `CC(C)c1ccc(OP(C)(=O)Nc2ccc(SC(F)(F)F)cc2)cc1` (centres undefined), for which the activation was inactive: 2.46%.

On to `CCc1cc(O)c([N+](=O)[O-])c(C)c1[N+](=O)[O-]`, for which the activation is inactive: 1.01%.

Turning to `CP(=O)(Nc1ccccc1F)Oc1ccccc1` (centres undefined), the activation was inactive: -0.291%.

Turning to `O=P1(Nc2nc3ccc(Cl)cc3s2)COc2ccccc2O1` (centres undefined), the activation is inactive: -0.177%.

Turning to `CCOc1ccc(C2=NCC(CBr)S2)cc1` (centres undefined), the activation was inactive: 0.408%.

Regarding `CC(=O)Nc1ccc([As](=O)(O)O)c(O)c1`, the activation was inactive: 0.14%.

In the case of `CC(=O)Nc1ccc(Oc2c([N+](=O)[O-])cc([N+](=O)[O-])cc2[N+](=O)[O-])cc1`, the activation was inactive: -0.157%.

Regarding `Cc1ccccc1CN(C)C(=O)COC(=O)C(O)(c1ccccc1)c1ccccc1`, the activation is inactive: 1.68%.

As to `O=C(OCCN1CCN(CCOCc2ccccc2)CC1)C(O)(c1ccccc1)c1ccccc1`, the activation was inactive: 0.775%.

Regarding `C[C@H]1OP(=O)(Oc2ccccc2)C[C@@H]2O[C@@H]21` (some centres undefined), the activation was inactive: -0.242%.

For the origin of these results see PubChem BioAssay AID624414 (National Center for Advancing Translational Sciences (NCATS), 2012).
